Pooled drug test results. Numbers come from NIAID ChemDB, via PubChem.

All rows: growth or infection tests; organism: Mycobacterium tuberculosis

Percent inhibition refers to the dose given; in toxicity tests it is the harm to the cells.

structure | strain or isolate | conditions | read by | read-out | tested at | result
O=C1OC2C3CC(C(C(=O)O)C13)C2N1C(=O)CCC1=O | H37Rv | - | BACTEC | MIC bound | - | >12.5 µg/mL
COC(=O)[C@H](Cc1c[nH]c2ccccc12)NC(=O)N[C@@H](CC1CCCCC1)C(=O)N[C@H](C(=O)NC[C@H]1C[C@@H](O)[C@H](n2ccc(=O)[nH]c2=O)O1)[C@H](C)N(C)C(=O)CN | H37Rv | - | resazurin / fluorescence | MIC99 | - | 0.2 µM
Cc1ccnc(NS(=O)(=O)c2ccc(N=CC3C(=O)N(c4ccccc4)N(c4ccccc4)C3=O)cc2)n1 | H37Rv | - | resazurin | MIC bound | - | >6.25 µg/mL
Cc1c(N2C[C@@H](N)C3(CC3)C2)c(F)cc2c(=O)c(C(=O)O)cn([C@@H]3C[C@@H]3F)c12 | 68 (RFP-susceptible) | - | - | MIC | - | 0.05 µg/mL
CC1=CCC/C(C)=C/[C@H]2OC(=O)[C@@H](C)[C@@H]2CC1 | H37Rv | - | - | MIC | - | 128 µg/mL
COC(=O)[C@H](Cc1c[nH]c2ccccc12)NC(=O)N[C@@H](Cc1ccc2ccccc2c1)C(=O)N[C@H](C(=O)NC[C@H]1C[C@@H](O)[C@H](n2ccc(=O)[nH]c2=O)O1)[C@H](C)N(C)C(=O)CN | H37Rv | - | resazurin / fluorescence | MIC99 | - | 0.16 µM
CC(=O)O[C@H]1CC[C@]2(C)[C@H]3CC[C@]4(C)[C@@H]([C@H](C)/C=C/[C@H](C)C(C)C)CC[C@H]4[C@@]34C=C[C@]2(C1)OO4 | H37Rv | - | - | MIC | - | 8 µg/mL
CCC1CN(c2c(F)cc3c(=O)c(C(=O)O)cn(C4CC4)c3c2OC)CCN1 | 71 (RFP-resistant) | - | - | MIC | - | 1 µg/mL
C[C@]1(COc2ccc(N3CCC(Oc4ccc(OC(F)(F)F)cc4)CC3)cc2)Cn2cc([N+](=O)[O-])nc2O1 | ATCC 35838 (H37RV-R-R) | - | - | MIC | - | 0.006 µg/mL
CC(C)CCCC(C)CCS(=O)(=O)C[C@@H]1O[C@H](CO)[C@@H](O)[C@@H]1O | H37Rv | - | - | inhibition | 6.25 µg/mL | 20%
CCN(CC)c1nc2c(s1)c1c(O)c3c(O)c(C)c4c(c32)C(=O)[C@@](C)(O/C=C/[C@H](OC)[C@@H](C)[C@@H](OC(C)=O)[C@H](C)[C@H](O)[C@H](C)[C@@H](O)[C@@H](C)/C=C/C=C(/C)C(=O)N1)O4 | H37Rv | - | - | MBC | - | 2 µg/mL
C[C@H]1COc2c(N3CCN(C)CC3)c(F)cc3c(=O)c(C(=O)O)cn1c23 | Strain 102 | - | - | MIC | - | 8 µg/mL
CCCCCCCCCC(=O)N[C@H]1[C@H](Oc2c3cc4cc2Oc2ccc(cc2Cl)[C@@H](O[C@@H]2O[C@H](CO)[C@@H](O)[C@H](O)[C@H]2NC(C)=O)[C@@H]2NC(=O)[C@H](NC(=O)[C@@H]4NC(=O)[C@H]4NC(=O)[C@@H](Cc5ccc(c(Cl)c5)O3)NC(=O)[C@H](N)c3ccc(O)c(c3)Oc3cc(O)cc4c3)c3ccc(O)c(c3)-c3c(O[C@H]4O[C@H](CO)[C@@H](O)[C@H](O)[C@@H]4O)cc(O)cc3[C@H](C(=O)O)NC2=O)O[C@H](CO)[C@@H](O)[C@@H]1O | L1908 | - | - | MIC | - | 32 µg/mL
Cc1cnc(C(N)=O)c(=O)[nH]1 | H37Rv | - | BACTEC | MIC bound | - | >12.5 µg/mL
CCc1nc2ncc(Cl)cn2c1C(=O)NCc1ccc(N2CCN(S(=O)(=O)CC(C)C)C=N2)cc1 | - | - | GFP | EC50 | - | 0.012 µM
C=C(Br)C(=O)N1CCCC1C(=O)NC | H37Rv | - | BACTEC | MIC bound | - | >12.5 µg/mL
CCN(CC)CCNC(=O)c1ccc([N+](=O)[O-])cc1Cl | N73 | - | - | MIC | - | 50 µg/mL
CC1=NN(C(=O)c2ccncc2)C(=O)C1N=Nc1ccc(Cl)cc1 | H37Rv | - | BACTEC | MIC | - | ≥12.8 µg/mL
CN(C)C(=O)CC(CSc1ccccc1)Nc1c(C(=O)N/N=C/c2cc(F)ccc2O)cnc2cccc(C(F)(F)F)c12 | H37Rv | - | resazurin | MIC | - | 10 µg/mL
Cc1c(N2CC3CCCNC3C2)c(F)cc2c(=O)c(C(=O)O)cn([C@@H]3C[C@@H]3F)c12 | 43 (RFP-susceptible) | - | - | MIC | - | 0.05 µg/mL
C[C@@H]([C@H](NC(=O)[C@H](CC1CCCCC1)NC(=O)N[C@@H](Cc1c[nH]c2ccccc12)C(=O)OCC(C)(C)C)C(=O)NC[C@H]1C[C@@H](O)[C@H](n2ccc(=O)[nH]c2=O)O1)N(C)C(=O)CN | H37Rv | - | resazurin / fluorescence | MIC50 | - | 0.003 µM
CCc1nc2nc(N(C)C)c(Cl)cn2c1C(=O)NCc1ccc(N2CCN(S(=O)(=O)C(F)(F)F)C=N2)c(F)c1 | - | - | GFP | EC50 | - | 0.2 µM
CCOC(=O)C1=C(C)O/C(=C\C=C\c2ccccc2)C1=O | H37Rv | - | BACTEC | inhibition | 12.5 µg/mL | 38%
COc1ccc(/C=N/NC(=O)c2cnc3cc(F)ccc3c2NC(CSc2ccccc2)CC(=O)N(C)C)cc1O | H37Rv | - | resazurin | MIC | - | 5 µg/mL
O=S1c2ccccc2Sc2ccccc21 | H37Rv | - | BACTEC | inhibition | 6.25 µg/mL | 18%
CN(C)C(=O)CC(CSc1ccccc1)Nc1c(C(=O)N/N=C/c2ccc(OC(F)(F)F)cc2)cnc2cccc(C(F)(F)F)c12 | H37Rv | - | resazurin | MIC | - | 5 µg/mL
O=C(Nc1ccc(F)cc1)N(Cc1cc2ccc(F)cc2[nH]c1=O)C1CCCCC1 | H37Rv (ATCC 27294) | 14 d | broth dilution | MIC | - | >64 µg/mL
C[C@@H]1CC[C@]2(C(=O)O)CC[C@]3(C)C(=CC[C@@H]4[C@@]5(C)C[C@@H](O)[C@@H](O)C(C)(C)[C@@H]5CC[C@]43C)[C@@H]2[C@]1(C)O | H37Rv | - | - | MIC | - | 128 µM
CCc1nc2ccc(C)cn2c1C(=O)NCc1ccc(N2CCN(S(=O)(=O)C(F)(F)F)C(C3CC3)=N2)cc1 | - | - | GFP | EC50 | - | 0.0012 µM
COc1cc(OC)c(OC)cc1/C=C1\N=C(c2ccccc2)OC1=O | H37Rv | - | BACTEC | inhibition | 12.5 µg/mL | 57%
CCc1nc2ncc(C)cn2c1C(=O)NCc1ccc(N2CCN(S(=O)(=O)C(F)(F)F)C(C3CC3)=N2)cc1 | - | - | GFP | EC50 | - | 0.0014 µM
Cc1cccc(N2CCN(Cc3cc(OCC(=O)O)ccc3-c3ccc(C#N)cc3)CC2)n1 | H37Rv (ATCC 27294) | - | broth dilution | MIC | - | 64 µg/mL
CCCCCCCCCCCCCCCCCCCCS(=O)(=O)C[C@@H]1O[C@H](CO)[C@@H](O)[C@@H]1O | H37Rv | - | - | inhibition | 6.25 µg/mL | 4%
CCCCCCNC(=O)[C@H](Cc1c[nH]c2ccccc12)NC(=O)N[C@@H](CC1CCCCC1)C(=O)N[C@H](C(=O)NC[C@H]1C[C@@H](O)[C@H](n2ccc(=O)[nH]c2=O)O1)[C@H](C)N(C)C(=O)CN | H37Rv | - | resazurin / fluorescence | MIC50 | - | 0.115 µM
CSc1ccccc1/C=N/NC(=O)c1cnc2cccc(C(F)(F)F)c2c1NC(CSc1ccccc1)CC(=O)N(C)C | H37Rv | - | resazurin | MIC | - | >100 µg/mL
CC(c1nnc(SCCOc2ccc(F)cc2)n1Cc1ccc(F)cc1)N(C)C(=O)c1ccccc1C(F)(F)F | H37Rv (ATCC 27294) | 7 d | broth dilution | MIC | - | >64 µg/mL
CCCC(=O)OCc1cc(=O)n(C)c2c3c4c(cc12)c(C)cc(=O)n4CO3 | KM-R | - | - | MIC | - | 0.4 µg/mL
CCC1=NN(c2ccc(CNC(=O)c3c(C(F)(F)F)nc4ccccn34)cc2F)CCN1S(=O)(=O)C(F)(F)F | - | - | GFP | EC50 | - | 0.0012 µM
C=C1C(=O)O[C@@H]2/C=C(\C)CC/C=C(\C)CC[C@@H]12 | H37Rv | - | - | MIC | - | 32 µg/mL
CC1COc2c(N3CCN(C)CC3)c(F)cc3c(=O)c(C(=O)O)cn1c23 | - | - | - | MIC50 | - | 0.5–1.3 µg/mL
N=C1C=CC(=NCc2ccc(N)cc2)C=C1 | H37Rv | - | BACTEC | inhibition | 12.5 µg/mL | 3%
C[C@@H]1CN(c2c(F)c(N)c3c(=O)c(C(=O)O)cn(C4CC4)c3c2F)C[C@H](C)N1 | - | - | - | MIC50 | - | 0.1–0.2 µg/mL
Cc1ccc(S(=O)(=O)ONNc2nccc3ccccc23)cc1 | H37Rv | - | BACTEC | MIC bound | - | >12.5 µg/mL
CCCCCCCCCCCCS(=O)(=O)C[C@@H]1O[C@H](CO)[C@@H](O)[C@@H]1O | H37Rv | - | - | EC50 | - | >6.25 µg/mL
Cc1ccc(S(=O)(=O)NNC(=O)c2cc3ccccc3[nH]2)cc1 | H37Rv | - | BACTEC | inhibition | 6.25 µg/mL | 0%
COc1ccc(-c2ccc(OCC(=O)O)cc2CN2CCN(c3ccccn3)CC2)cc1 | H37Rv (ATCC 27294) | - | broth dilution | MIC | - | 32 µg/mL
C=C(C)[C@@H]1CC[C@]2(C)CCC3(C)[C@H](CC[C@@H]4[C@@]5(C)CC[C@H](O)C(C)(C)[C@@H]5CC[C@]43C)[C@@H]12 | H37Rv | - | - | MIC | - | 64 µM
CCCCCCCCCCCCCCCCCCCCP(=O)([O-])C[C@@H]1O[C@H](CO)[C@@H](O)[C@@H]1O | H37Rv | - | - | EC50 | - | >6.25 µg/mL
CCc1nc2ccc(Cl)cn2c1C(=O)NCc1ccc(N2CCN(S(=O)(=O)C(F)(F)F)C=N2)cc1.Cl | - | - | GFP | EC50 | - | 0.0091 µM
CN(C)C(=O)CC(CSc1ccccc1)Nc1c(C(=O)N/N=C/c2cc(F)ccc2O)cnc2cc(F)ccc12 | H37Rv | - | resazurin | MIC | - | 10 µg/mL
CCN(CC)CCNC(=O)c1ccc(Cl)cc1 | N73 | - | - | MIC | - | 50 µg/mL
CCCCCCCCCCS(=O)(=O)C[C@@H]1O[C@H](CO)[C@@H](O)[C@@H]1O | H37Rv | - | - | EC50 | - | >6.25 µg/mL
CCN(CC)CCNC(=O)c1cc(Cl)cc([N+](=O)[O-])c1 | N73 | - | - | MIC | - | 50 µg/mL
CN(C)C(=O)CC(CSc1ccccc1)Nc1c(C(=O)N/N=C/c2ccc(F)cc2)cnc2cc(F)ccc12 | H37Rv | - | resazurin | MIC | - | 1.25 µg/mL
O=C(NCc1ccc(N2CCN(S(=O)(=O)C(F)(F)F)C=N2)c(F)c1)c1c(C(F)F)nc2ccc(Cl)cn12 | - | - | GFP | EC50 | - | 0.0041 µM
NS(=O)(=O)c1ccc(N=NC2C(=O)N(C(=O)CC(=O)Nc3ccc(C(=O)O)cc3)N=C2c2ccccc2)cc1 | H37Rv | - | BACTEC | inhibition | 12.5 µg/mL | 85.39%
CC1=CC[C@@H](O)[C@]2(C)CC[C@@H]3[C@H](OC(=O)[C@H]3C)[C@@H]12 | H37Rv | - | - | MIC | - | >128 µg/mL
NC[C@@H]1O[C@H](O[C@H]2[C@@H](O)[C@H](O[C@@H]3[C@@H](O)[C@H](N)C[C@H](N)[C@H]3O[C@H]3O[C@H](CO)[C@@H](O)[C@H](O)[C@H]3N)O[C@@H]2CO)[C@H](N)[C@@H](O)[C@@H]1O | - | - | - | MIC | - | 0.09–1.5 µg/mL
O=C(NCCCn1ccnc1[N+](=O)[O-])C(=O)NCCCn1ccnc1[N+](=O)[O-] | H37Rv | - | resazurin | MIC bound | - | >6.25 µg/mL
C[C@@H]([C@H](NC(=O)[C@H](CC1CCCCC1)NC(=O)N[C@@H](Cc1c[nH]c2ccccc12)C(=O)NCc1ccccc1)C(=O)NC[C@H]1C[C@@H](O)[C@H](n2ccc(=O)[nH]c2=O)O1)N(C)C(=O)CN | H37Rv | - | resazurin / fluorescence | MIC50 | - | 0.057 µM
COc1c2c(c(OC)c3oc(=O)ccc13)OCC2 | H37Rv | - | BACTEC | MIC bound | - | >12.5 µg/mL
CC(C)=C[C@H](O)C[C@@H](C)[C@H]1CC[C@@]2(C)C3=C(CC[C@]12C)[C@@]1(C)CCC(=O)C(C)(C)[C@@H]1CC3 | H37Rv | - | - | MIC | - | 64–128 µg/mL
N=C(N)SCc1csc(N)n1 | H37Rv | - | BACTEC | inhibition | 6.25 µg/mL | 0%
N#Cc1c(N)oc(-c2ccccc2)c1-c1ccccc1 | H37Rv | - | resazurin | inhibition | 50 µg/mL | 6%
[Na+].[O-]/N=N/c1cnc(-c2ccccc2)c(-c2ccccc2)n1 | H37Rv | - | BACTEC | MIC bound | - | >12.5 µg/mL
CSCCC/C=N/NC(=O)c1cnc2cccc(C(F)(F)F)c2c1NC(CSc1ccccc1)CC(=O)N(C)C | H37Rv | - | resazurin | MIC | - | 10 µg/mL
CC1=NN(C(=O)NS(=O)(=O)c2ccc(CCNC(=O)c3nccnc3N)cc2)CC1 | H37Rv | - | BACTEC | MIC bound | - | >12.5 µg/mL
C=C1CCC[C@]2(C)CC[C@H]3C(=C)C(=O)O[C@@H]3[C@@H]12 | H37Rv | - | - | MIC | - | 64 µg/mL
CCC(C)C1C(=O)OC(C(Cl)(Cl)Cl)N1Cc1ccc(OC)cc1OC | H37Rv | - | BACTEC | MIC bound | - | >12.5 µg/mL
CCCCCCCCCCP(=O)([O-])C[C@@H]1O[C@H](CO)[C@@H](O)[C@@H]1O | H37Rv | - | - | EC50 | - | >6.25 µg/mL
CC(=O)NC(=O)NC1C(OC(C)=O)C(OC(C)=O)C(COC(C)=O)OC1n1ccc(NC(C)=O)nc1=O | H37Rv | - | BACTEC | MIC bound | - | >12.5 µg/mL
COc1c(N2CCNC(C)C2)c(F)cc2c(=O)c(C(=O)O)cn(C3CC3)c12 | Strain 40 | - | - | MIC | - | 0.125 µg/mL

An empty or dashed field is not shown. MIC bound: limit read from a one-dose screen. ECn is the concentration giving n% inhibition of infection, replication or growth. Rows are shuffled and stem from different studies. A number after MIC or MFC names an inhibition level or a share of isolates. Two numbers with a dash give a range or band.